Measurements from patent US20230108186A1, “NITRIC OXIDE-RELEASING ANTIBACTERIAL COMPOUNDS, FORMULATIONS, AND METHODS PERTAINING THERETO” (published 2023).

Columns and labels:
[1] = test system: P. aeruginosa; assay: MIC/MBC against P. aeruginosa, Tables 5 and 6; details: MTDD (NCT-19-096) mixed with β-cyclodextrin
[2] = test system: P. aeruginosa (PAK), strain N0049; assay: MIC/MBC of samples of varying purity (MD3 relative to MD2)
[3] = test system: PAK; assay: pH vs efficacy against PAK / pH dependence of NO release; details: data not shown

## β-cyclodextrin
[1]
  MIC against P. aeruginosa: >6250 µg/mL

## [O-]/[N+](=N\O)C(/[N+]([O-])=N/O)/[N+]([O-])=N/O
[2]
  MBC: 125 µg/mL
  MIC: 62.5 µg/mL
[3]; pH of around 6.5 vs around 7.5
  rate of NO release, pH comparison: higher rates of NO-release at a pH of around 6.5 than around 7.5
[3]; pH of around 8.4
  NO release: relatively little NO release
